In US11530514B2, “Method for manufacturing a fibrous web” (Kemira Oyj, priority 2017, dated 2022) one finds pH and Redox data, which are given here for one molecule.

SMILES strings stand for the structures.

The nature of this data set: Example 3: pH and redox of treated process water. The data set is classed as physicochemical.

As to `OCl` [sodium hypochlorite], where the note is “untreated 7.6”, the pH worked out at 7.7. Moreover, for the setting “untreated 165”, the Redox turned out to be 154.
